{"source": "patent US20250115620A1", "about": "“BRIDGED TRICYCLIC CARBAMOYLPYRIDONE COMPOUNDS AND USES THEREOF” (Gilead Sciences, Inc., priority 2022, published 2025)", "test_system": "pLAI reporter virus", "assay_type": "cell-based, HIV", "details": "EC50 (50% HS)/EC50 (CCM)", "data": [{"smiles": "CC1=NO[C@@]2(CC[C@H](CF)N3C[C@H]2n2cc(C(=O)NCc4c(F)cc(F)cc4F)c(=O)c(O)c2C3=O)C1", "note": "[Example 54, (3′R,5S,7′R)-3′-(fluoromethyl)-12′-hydroxy-3-methyl-1′,11′-dioxo-N-(2,4,6-trifluorobenzyl)-1′,4′,5′,11′-tetrahydro-3′H,4H,7′H-spiro[isoxazole-5,6′-[2,7]methanopyrido[1,2-a][1,4]diazonine]-10′-carboxamide]", "values": [{"measurement": "RLUC 50% HS Shift", "value": 179, "unit": "×"}]}, {"smiles": "C[C@H]1CC[C@@]2(CCO2)[C@H]2CN1C(=O)c1c(O)c(=O)c(C(=O)NCc3c(F)cc(F)cc3F)cn12", "note": "[Example 55, (2R,3′S,7′R)-12′-hydroxy-3′-methyl-1′,11′-dioxo-N-(2,4,6-trifluorobenzyl)-1′,4′,5′,11′-tetrahydro-3′H,7′H-spiro[oxetane-2,6′-[2,7]methanopyrido[1,2-a][1,4]diazonine]-10′-carboxamide]", "values": [{"measurement": "RLUC 50% HS Shift", "value": 46, "unit": "×"}]}, {"smiles": "CC1=NCC2(CC[C@H](C)N3C[C@H]2n2cc(C(=O)NCc4ccc(F)cc4F)c(=O)c(O)c2C3=O)O1", "note": "(stereo partly drawn) [Example 56, (3′S,7′R)—N-(2,4-difluorobenzyl)-12′-hydroxy-2,3′-dimethyl-1′,11′-dioxo-1′,4′,5′,11′-tetrahydro-3′H,4H,7′H-spiro[oxazole-5,6′-[2,7]methanopyrido[1,2-a][1,4]diazonine]-10′-carboxamide]", "values": [{"measurement": "RLUC 50% HS Shift", "value": 1, "unit": "×"}]}, {"smiles": "C[C@H]1CC[C@@]2(CNC(=O)C2)[C@H]2CN1C(=O)c1c(O)c(=O)c(C(=O)NCc3c(F)cc(F)cc3F)cn12", "note": "[Example 57, (3R,3′S, 7′S)-12′-hydroxy-3′-methyl-1′,5,11′-trioxo-N-(2,4,6-trifluorobenzyl)-1′,4′,5′,11′-tetrahydro-3′H, 7′H-spiro[pyrrolidine-3,6′-[2,7]methanopyrido[ ],2-a][1,4]diazonine-10′-carboxamide]", "values": [{"measurement": "RLUC 50% HS Shift", "value": "<1", "unit": "×"}]}, {"smiles": "C[C@H]1CC[C@@]2(CN(C)C(=O)O2)[C@H]2CN1C(=O)c1c(O)c(=O)c(C(=O)NCc3c(F)cc(F)cc3F)cn12", "note": "[Example 60, (3′S,5R,7′R)-12′-hydroxy-3,3′-dimethyl-1′,2,11′-trioxo-N-(2,4,6-trifluorobenzyl)-1′,4′,5′,11′-tetrahydro-3′H,7′H-spiro[oxazolidine-5,6′-[2,7]methanopyrido[1,2-a][1,4]diazonine]-10′-carboxamide]", "values": [{"measurement": "RLUC 50% HS Shift", "value": 1, "unit": "×"}]}, {"smiles": "C[C@H]1CC[C@]2(CC(=O)N(C)C2)[C@H]2CN1C(=O)c1c(O)c(=O)c(C(=O)NCc3c(F)cc(F)cc3F)cn12", "note": "[Example 61, (3R,3′S,7′S)-12′-hydroxy-1,3′-dimethyl-1′,5,11′-trioxo-N-(2,4,6-trifluorobenzyl)-1′,4′,5′,11′-tetrahydro-3′H,7′H-spiro[pyrrolidine-3,6′-[2,7]methanopyrido[1,2-a][1,4]diazonine]-10′-carboxamide]", "values": [{"measurement": "RLUC 50% HS Shift", "value": 2, "unit": "×"}]}, {"smiles": "C[C@H]1CC[C@@]2(CC(=O)N(C)C2)[C@H]2CN1C(=O)c1c(O)c(=O)c(C(=O)NCc3c(F)cc(F)cc3F)cn12", "note": "[Example 62, (3S,3′S,7′S)-12′-hydroxy-1,3′-dimethyl-1′,5,11′-trioxo-N-(2,4,6-trifluorobenzyl)-1′,4′,5′,11′-tetrahydro-3′H,7′H-spiro[pyrrolidine-3,6′-[2,7]methanopyrido[1,2-a][1,4]diazonine]-10′-carboxamide]", "values": [{"measurement": "RLUC 50% HS Shift", "value": 2, "unit": "×"}]}, {"smiles": "CCN1C[C@@]2(CC[C@H](C)N3C[C@H]2n2cc(C(=O)NCc4c(F)cc(F)cc4F)c(=O)c(O)c2C3=O)OC1=O", "note": "[Example 63, (3′S,5R,7′R)-3-ethyl-12′-hydroxy-3′-methyl-1′,2,11′-trioxo-N-(2,4,6-trifluorobenzyl)-1′,4′,5′,11′-tetrahydro-3′H,7′H-spiro[oxazolidine-5,6′-[2,7]methanopyrido[1,2-a][1,4]diazonine]-10′-carboxamide]", "values": [{"measurement": "RLUC 50% HS Shift", "value": 1, "unit": "×"}]}, {"smiles": "COC1=NO[C@@]2(CC[C@H](C)N3C[C@H]2n2cc(C(=O)NCc4ncc(F)c(Cl)c4F)c(=O)c(O)c2C3=O)C1", "note": "[Example 64, (3′S,5S,7′R)—N-((4-chloro-3,5-difluoropyridin-2-yl)methyl)-12′-hydroxy-3-methoxy-3′-methyl-1′,11′-dioxo-1′,4′,5′,11′-tetrahydro-3′H,4H,7′H-spiro[isoxazole-5,6′-[2,7]methanopyrido[1,2-a][1,4]diazonine]-10′-carboxamide]", "values": [{"measurement": "RLUC 50% HS Shift", "value": 500, "unit": "×"}]}, {"smiles": "COC1=NO[C@@]2(CC[C@H](C)N3C[C@H]2n2cc(C(=O)NCc4cc(F)c(F)cc4F)c(=O)c(O)c2C3=O)C1", "note": "[Example 65, (3′S,5S,7′R)-12′-hydroxy-3-methoxy-3′-methyl-1′,11′-dioxo-N-(2,4,5-trifluorobenzyl)-1′,4′,5′,11′-tetrahydro-3′H,4H,7′H-spiro[isoxazole-5,6′-[2,7]methanopyrido[1,2-a][1,4]diazonine]-10′-carboxamide]", "values": [{"measurement": "RLUC 50% HS Shift", "value": 178, "unit": "×"}]}, {"smiles": "C[C@H]1CC[C@]2(CC(CF)=NO2)[C@H]2CN1C(=O)c1c(O)c(=O)c(C(=O)NCc3ncc(F)c(Cl)c3F)cn12", "note": "[Example 66, (3′S,5S,7′R)—N-((4-chloro-3,5-difluoropyridin-2-yl)methyl)-3-(fluoromethyl)-12′-hydroxy-3′-methyl-1′,11′-dioxo-1′,4′,5′,11′-tetrahydro-3′H,4H,7′H-spiro[isoxazole-5,6′-[2,7]methanopyrido[1,2-a][1,4]diazonine]-10′-carboxamide]", "values": [{"measurement": "RLUC 50% HS Shift", "value": 702, "unit": "×"}]}, {"smiles": "CCC1=NO[C@@]2(CC[C@H](C)N3C[C@H]2n2cc(C(=O)NCc4c(F)cc(F)cc4F)c(=O)c(O)c2C3=O)C1", "note": "[Example 67, (3′S,5S,7′R)-3-ethyl-12′-hydroxy-3′-methyl-1′,11′-dioxo-N-(2,4,6-trifluorobenzyl)-1′,4′,5′,11′-tetrahydro-3′H,4H,7′H-spiro[isoxazole-5,6′-[2,7]methanopyrido[1,2-a][1,4]diazonine]-10′-carboxamide]", "values": [{"measurement": "RLUC 50% HS Shift", "value": 634, "unit": "×"}]}, {"smiles": "CCCC1=NO[C@@]2(CC[C@H](C)N3C[C@H]2n2cc(C(=O)NCc4c(F)cc(F)cc4F)c(=O)c(O)c2C3=O)C1", "note": "[Example 68, (3′S,5S,7′R)-12′-hydroxy-3′-methyl-1′,11′-dioxo-3-propyl-N-(2,4,6-trifluorobenzyl)-1′,4′,5′,11′-tetrahydro-3′H,4H,7′H-spiro[isoxazole-5,6′-[2,7]methanopyrido[1,2-a][1,4]diazonine]-10′-carboxamide]", "values": [{"measurement": "RLUC 50% HS Shift", "value": 285, "unit": "×"}]}, {"smiles": "C[C@H]1CC[C@]2(CC(CCF)=NO2)[C@H]2CN1C(=O)c1c(O)c(=O)c(C(=O)NCc3c(F)cc(F)cc3F)cn12", "note": "[Example 69, (3′S,5S,7′R)-3-(2-fluoroethyl)-12′-hydroxy-3′-methyl-1′,11′-dioxo-N-(2,4,6-trifluorobenzyl)-1′,4′,5′,11′-tetrahydro-3′H,4H,7′H-spiro[isoxazole-5,6′-[2,7]methanopyrido[1,2-a][1,4]diazonine]-10′-carboxamide]", "values": [{"measurement": "RLUC 50% HS Shift", "value": 471, "unit": "×"}]}, {"smiles": "C[C@@H](F)C1=NO[C@@]2(CC[C@H](C)N3C[C@H]2n2cc(C(=O)NCc4c(F)cc(F)cc4F)c(=O)c(O)c2C3=O)C1", "note": "[Example 70, (3′S,5S,7′R)-3-((R)-1-fluoroethyl)-12′-hydroxy-3′-methyl-1′,11′-dioxo-N-(2,4,6-trifluorobenzyl)-1′,4′,5′,11′-tetrahydro-3′H,4H,7′H-spiro[isoxazole-5,6′-[2,7]methanopyrido[1,2-a][1,4]diazonine]-10′-carboxamide]", "values": [{"measurement": "RLUC 50% HS Shift", "value": 441, "unit": "×"}]}]}
